A mixed list of measured activities; the numbers were collected in NIAID ChemDB.

Common to all: host cell toxicity; cell line: MT-2; read-out: CC50

a–b is a range or a potency band. Rows are shuffled and stem from different studies. CCn is the concentration with n% toxicity to the cells.

{"compound": "C=Cc1c(C)c2cc3[nH]c(cc4nc(cc5nc(cc1[nH]2)C(C)=C5CCC(=O)OC)C(CCC(=O)OC)=C4C)c(C)c3C=C", "value": ">80 µg/mL"}
{"compound": "C=Cc1c(C)c2cc3[nH]c(cc4nc(cc5nc(cc1[nH]2)C(C)=C5CCC(=O)O)C(CCC(=O)O)=C4C)c(C)c3C=C", "value": "15.8 µM"}
{"compound": "CC(=O)N[C@@H](Cc1ccccc1)C(=O)N[C@H](C(=O)N[C@@H](CC(C)C)[C@@H](O)CC(=O)N[C@@H](CC(C)C)C(=O)N[C@@H](Cc1ccccc1)C(N)=O)C(C)C", "value": ">138 µM"}
{"compound": "Nc1ccn([C@H]2CC[C@@H](CO)O2)c(=O)n1", "value": ">9.8 µg/mL"}
{"compound": "C=Cc1c(C)c2cc3nc(cc4[nH]c(cc5nc(cc1[nH]2)C(C)=C5CO)c(C)c4CCC(=O)O)C(CCC(=O)O)=C3C", "value": "39 µg/mL"}
{"compound": "COc1ccnc2[nH]cc(C(=O)C(=O)N3CCN(C(=O)c4ccccc4)C[C@H]3C)c12", "value": ">225 µM"}
{"compound": "CC1=C(CCC(=O)O)c2cc3[nH]c(cc4nc(cc5[nH]c(cc1n2)c(CCC(=O)O)c5CC(=O)O)C(CCC(=O)O)=C4C)c(CCC(=O)O)c3CC(=O)O", "value": "55.8 µg/mL"}
{"compound": "Cc1cn([C@H]2C=C[C@@H](OCP(=O)(O)O)O2)c(=O)[nH]c1=O", "value": ">100 µg/mL"}
{"compound": "Cc1nc2sc3c(c2c(-c2ccc4cnn(C)c4c2)c1C(OC(C)(C)C)C(=O)O)CCCC3", "value": ">20 µM"}
{"compound": "C=C1CN(S(=O)(=O)c2ccc(C)cc2)CCCN(Cc2ccccc2)CCCN(S(=O)(=O)c2ccc(C)cc2)C1", "value": ">30 µM"}
{"compound": "C=CC1=C(C)C2=NC1=CC1=NC(=C(CC)/C1=C\\[O-])C=c1[n-]c3c(c1C)C(=O)[C@H](C(=O)OC)C=3C1=NC(=C2)[C@@H](C)[C@@H]1CCC(=O)OC/C=C(\\C)CCCC(C)CCCC(C)CCCC(C)C.[Mg+2]", "value": ">80 µg/mL"}
{"compound": "N#C/C=C/c1cccc(Oc2ccc(C#N)cc2OCCn2ccc(=O)[nH]c2=O)c1", "value": ">90 µM"}
{"compound": "CC1(C)C=C2C3CCC4[C@@]5(C)CCC(=O)C(C)(C)C5[C@H](O)C[C@@]4(C)[C@]3(C)CC[C@@]2(C)CC1", "value": "10.52–53.85 µM"}
{"compound": "CCOC(C(=O)O)c1c(C)nc2sc3c(c2c1-c1ccc2cnn(C)c2c1)CCCC3", "value": ">20 µM"}
{"compound": "O=c1[nH]cnc2c1ncn2[C@H]1CC[C@@H](CO)S1", "value": ">100 µg/mL"}
{"compound": "Nc1nc(=O)n([C@@H]2C=C[C@H](CO)O2)cc1F", "value": "9 µM"}
{"compound": "N#Cc1ccc(Oc2cc(Cl)cc(Cl)c2)c(OCCn2ccc(=O)[nH]c2=O)c1", "value": ">61 µM"}
{"compound": "C=Cc1c(C)c2cc3c(C=C)c(C)c(cc4nc(cc5nc(cc1[nH]2)C(C)=C5CCC(=O)O)C(CCC(=O)O)=C4C)n3C", "value": "40.3 µg/mL"}
{"compound": "O=c1[nH]c(=O)n([C@H]2C=C[C@@H](OCP(=O)(O)O)O2)cc1Cl", "value": ">100 µg/mL"}
{"compound": "O=c1[nH]c(=O)n([C@@H]2CO[C@H](CO)O2)cc1I", "value": ">100 µM"}
{"compound": "CCc1cn([C@H]2C=C[C@@H](OCP(=O)(O)O)O2)c(=O)[nH]c1=O", "value": ">100 µg/mL"}
{"compound": "Nc1nc(Cl)c2ncn([C@H]3C=C[C@@H](CO)C3)c2n1", "value": "6.97 µg/mL"}
{"compound": "Nc1nc(=O)n([C@H]2C=C[C@@H](OCP(=O)(O)O)O2)cc1I", "value": ">100 µg/mL"}
{"compound": "Nc1nc(N)c2ncn([C@H]3CC[C@@H](CO)C3)c2n1", "value": ">100 µg/mL"}
{"compound": "Cc1nc2cc(-c3c(C(OC(C)(C)C)C(=O)O)c(C)nc4sc5c(c34)CCCC5)ccc2s1", "value": ">20 µM"}
{"compound": "Nc1nc2c(ncn2[C@H]2CC[C@@H](CO)S2)c(=O)[nH]1", "value": ">200 µg/mL"}
{"compound": "C#C[C@@]1(CO)C=C[C@H](n2cc(C)c(=O)[nH]c2=O)O1", "value": ">100 µM"}
{"compound": "CC1=C(CCC(=O)O)c2cc3nc(cc4[nH]c(cc5[nH]c(cc1n2)c(CCC(=O)O)c5CC(=O)O)c(CCC(=O)O)c4C)C(CCC(=O)O)=C3C", "value": "78 µg/mL"}
{"compound": "N#Cc1ccc(Oc2cc(Cl)ccc2Cl)c(OCCn2ccc(=O)[nH]c2=O)c1", "value": "59 µM"}
{"compound": "Cc1nc2sc3c(c2c(-c2ccc(Br)cc2)c1[C@H](OC(C)(C)C)C(=O)O)CCCC3", "value": ">20 µM"}
{"compound": "Cc1nc2ccccc2c(-c2ccc(Cl)cc2)c1[C@H](OC(C)(C)C)C(=O)O", "value": "55.5 µM"}
{"compound": "CC(C)[C@H](NC(=O)[C@H](Cc1ccccc1)C[C@H](O)[C@H](Cc1ccccc1)NC(=O)OC(C)(C)C)C(=O)N[C@@H](Cc1ccccc1)C(=O)N1CCOCC1", "value": ">100 µM"}
{"compound": "CCCc1cc(=O)oc2c3c(c4c(c12)OC(C)(C)CC4)O[C@@H](C)[C@H](C)[C@@H]3O", "value": "10–20 µM"}
{"compound": "COc1cc(C)cc2c(-c3c(O)cc(O)c4c3C[C@H](C)N[C@H]4C)cc(-c3cc(-c4c(O)cc(O)c5c4C[C@H](C)N[C@H]5C)c4cc(C)cc(OC)c4c3O)c(O)c12", "value": ">250 µM"}
{"compound": "C=C[C@@]1(CO)C=C[C@H](n2cc(C)c(=O)[nH]c2=O)O1", "value": ">100 µM"}

Repeating the final 5 entries:

compound | value
Cc1nc2ccccc2c(-c2ccc(Cl)cc2)c1[C@H](OC(C)(C)C)C(=O)O | 55.5 µM
CC(C)[C@H](NC(=O)[C@H](Cc1ccccc1)C[C@H](O)[C@H](Cc1ccccc1)NC(=O)OC(C)(C)C)C(=O)N[C@@H](Cc1ccccc1)C(=O)N1CCOCC1 | >100 µM
CCCc1cc(=O)oc2c3c(c4c(c12)OC(C)(C)CC4)O[C@@H](C)[C@H](C)[C@@H]3O | 10–20 µM
COc1cc(C)cc2c(-c3c(O)cc(O)c4c3C[C@H](C)N[C@H]4C)cc(-c3cc(-c4c(O)cc(O)c5c4C[C@H](C)N[C@H]5C)c4cc(C)cc(OC)c4c3O)c(O)c12 | >250 µM
C=C[C@@]1(CO)C=C[C@H](n2cc(C)c(=O)[nH]c2=O)O1 | >100 µM